{"source": "paper PMC4186475", "about": "(Influenza and Other Respiratory Viruses, 2013)", "key": {"[1]": {"tested_on": "neuraminidase (NA) of influenza A (H3N2) viruses", "test": "NA-Fluor fluorescent NA inhibition (NI) assay, A (H3N2) viruses", "format": "biochemical, influenza A (H3N2) virus", "conditions": "H3N2 viruses with Normal NA inhibition"}, "[2]": {"tested_on": "neuraminidase (NA) of variant influenza A (H3N2)v viruses", "test": "NA-Fluor fluorescent NA inhibition (NI) assay, variant A (H3N2)v viruses", "format": "biochemical, influenza A (H3N2)v virus", "conditions": "for Fold change in IC50 of test viruses, Approach #1: vs IC50 of A/California/07/2009 tested in same assay; for Fold change in IC50 of test viruses, Approach #2: vs median IC50 of A/California/07/2009 from 70 assays"}, "[3]": {"tested_on": "neuraminidase (NA) of influenza A (H1N1)pdm09 viruses", "test": "NA-Fluor fluorescent NA inhibition (NI) assay, A (H1N1)pdm09 viruses", "format": "biochemical, influenza A (H1N1)pdm09 virus", "conditions": "H1N1pdm09 viruses with Normal NA inhibition"}, "[4]": {"tested_on": "neuraminidase (NA) of influenza B viruses", "test": "NA-Fluor fluorescent NA inhibition (NI) assay, influenza B viruses", "format": "biochemical, influenza B virus", "conditions": "Influenza B viruses with Normal NA inhibition"}, "[5]": {"conditions": "vs median IC50 for virus type/subtype"}, "[6]": {"conditions": "vs median IC50 of A/California/07/2009 from 70 assays"}, "[7]": {"conditions": "H3N2v virus with Highly reduced NA inhibition (1 virus)"}, "[8]": {"conditions": "H3N2v viruses with Normal NA inhibition"}}}
{"compound": "CC(=O)N[C@H]1[C@H]([C@H](O)[C@H](O)CO)OC(C(=O)O)=C[C@@H]1N=C(N)N", "note": "[Zanamivir, zanamivir]", "values": [{"measurement": "Fold change in IC50 of test viruses, Approach #1", "setting": "[1]; vs IC50 of A/California/07/2009 tested in same assay", "value": "1–6 (977) fold"}, {"measurement": "Fold change in IC50 of test viruses, Approach #3", "setting": "[1]; [5]", "value": "0–5 (977) fold"}, {"measurement": "Fold change in IC50 of test viruses, Approach #2", "setting": "[1]; [6]", "value": "1–6 (977) fold"}, {"measurement": "Fold change in IC50 of test viruses, Approach #1", "setting": "[2]; [7]", "value": "223 (1) fold"}, {"measurement": "Fold change in IC50 of test viruses, Approach #2", "setting": "[2]; [7]", "value": "199 (1) fold"}, {"measurement": "Fold change in IC50 of test viruses, Approach #3", "setting": "[2]; H3N2v virus with Reduced NA inhibition (1 virus, S245N + S247P), vs median IC50 for virus type/subtype", "value": "70 (1) fold"}, {"measurement": "Fold change in IC50 of test viruses, Approach #1", "setting": "[2]; [8]", "value": "2–5 (155) fold"}, {"measurement": "Fold change in IC50 of test viruses, Approach #2", "setting": "[2]; [8]", "value": "2–4 (155) fold"}, {"measurement": "Fold change in IC50 of test viruses, Approach #1", "setting": "[3]; vs IC50 of reference virus A/California/07/2009 tested in same assay", "value": "0–6 (449) fold"}, {"measurement": "Fold change in IC50 of test viruses, Approach #3", "setting": "[3]; [5]", "value": "1–6 (449) fold"}, {"measurement": "Fold change in IC50 of test viruses, Approach #2", "setting": "[3]; [6]", "value": "1–6 (449) fold"}, {"measurement": "Fold change in IC50 of test viruses, Approach #3", "setting": "[4]; [5]", "value": "0–2 (342) fold"}, {"measurement": "Fold change in IC50 of test viruses, Approach #2", "setting": "[4]; vs median IC50 of B/Rochester/02/2001 from 11 assays", "value": "1–3 (342) fold"}]}
